Target: human α9α10 nicotinic acetylcholine receptor (nAChR) (human) (UniProt Q9UGM1)
Test: cell-based or functional assay

Substance	IC50 (nM), block of the acetylcholine response, voltage-clamped Xenopus oocytes [nM]	fold potency against [C3Pen;14R]RgIA5 (SEQ ID NO: 41) [fold]
[C3Pen;Y13bhY;14R]RgIA5 (peptide; modification not given)	0.055	9
[C3Pen;Y13bhY;14r]RgIA4 (peptide; modification not given)	2.1	–

Source: US10947274
